Numbering of substitutions follows the chain as printed. Human monoclonal antibodies against the spike receptor-binding domain (heavy:light variable regions). IC50 against pseudoviruses bearing the spike of naturally observed variants; lower = stronger; >10 µg/ml means not reached at the top dose. No active / inactive call. The stated detection limit is 0.0005 µg/ml; values near or below 0.001 µg/ml lie at the floor of the assay.
B1: BD56-497 (protein)
chain 1: EVQLVESGGGFIQPGGSLRLSCVVSGFSVSRIYMNWVRQVPGKGLEWVSIIYSGGSTFYADSVKGRFTISRDSSKNTLYLQMNSLRAEDTAVYYCARATYSNYFDYWGQGTLVTVSS
chain 2: DIQMTQSPSSLSASIGDRVTITCQASQDISNSLHWYQQKPGKAPKLLIHDASILETGVPSRFSGGGSGTDFTFTIISLQPEDIATYYCQQYDNLPSYTFGQGTKLEIK
B2: BD56-486 (protein)
chain 1: LQESGPGLVKPSGTLSLTCAVSGGSITTSSWWTWVRQPPGKGLQWIGEIYHTGSTNYNPSLKSRVTISLDKSKNQFSLRLTSVTAADTAVYYCARALLSDYRDLVGWGQGTLVTVSS
chain 2: DIQMTQSPSSLSASVGDRVTITCRASQSISSYLNWYQQKPGKAPKLLIYAASHLRSGVPSRFSGSESGTDFTLTISSLQPEDFATYFCHQMYSTPQTFGQGTTVEVK
B3: BD56-510 (protein)
chain 1: QVQLVQSGAEVKKPGSSVKVSCKASGGTFSNNAINWVRQAPGQGLEWMGRIIPIFDITNYAQQFQGRVTITADKSTSAAYMELSRLRSADTAVYYCARGGMVGAEYYFDDWGQGTLVTVSS
chain 2: DIVMTQSPDSLAVSLGERATINCKSSQSLLYSSNNENHLAWYQQKPGQPPKLLLYWSSTRASGVPDRFSGSGSGTDFTLTISGLQAEDVAVYYCQQYYSTSSRTFGQGTKVEIK
B4: DH1155 (protein)
chain 1: QVQLQESGPGLVKPSGTLSLTCAVSGGSISSSNWWSWVRQPPGKGLEWIGEIYHSGSTNYNPSLKSRVTISVDKSKNQFSLKLSSVTAADTAVYYCAMVQGVMVYWGQGTLVTVSS
chain 2: DIQMTQSPSSLSASVGDRVTITCRASQGISNSLAWYQQKPGKAPKLLLYAASRLESGVPSRFSGSGSGTDYTLTISSLQPEDFATYYCQQYYSTLGRTFGQGTKVEIK
B5: BD56-501 (protein)
chain 1: EVQLVGSGGGLVQPGGSLRLSCAASGFTFSSYEMNWVRQAPGRGLEWVSYISRSGTTTFYTDSVKGRFTISRDNARNSLYLQMNSLRAEDTAVYYCARDSTAWVSFYDYWGQGTLVTVSS
chain 2: EIVLTQSPDFQSVTPKEKVTITCRASESIGTSLHWYQQKPDQSPKLLIKIASQSFSGVPSRFSGSGSGTDFTLTISSLEAEDAATYYCHQTSSLPYTFGQGTKLEIK
B6: BD56-491 (protein)
chain 1: QVHLVESGGGLVKPGGSLRLSCAASGFTFSDYFMCWIRQAPGKGLECIAHISNSGNTKHYADSVKGRFTISRDNGKNSLYLQMSSLRAEDTAMYYCTRRPFGVAEWDGYWYFDLWGRGTLVTVSS
chain 2: QSVLTQPPSVSAAPGQKVTISCSGSSSNIGNNYVSWYQQLPGTAPTLLIYDNDQRPSGIPDRFSGSKSGTSATLAITGLQTGDEADYYCGTWDSSLSALFGGGTKLTVL
B7: BD56-515 (protein)
chain 1: QVQLQESGPGLMKPSGTLSLTCAVSGDSISRNTWWGWVRQPPGKGLEWIGEIYHSGSTNYNPSLESRVTISIDKSKNQFSLKLNSLTAADTALYYCAKGGSGSSFLAYYFDYWGRGTLVTVSS
chain 2: EIVMTQSPATLSVSPGEKATLSCRASQSISTHLAWYQQKPGQAPRLLIYGASTRATGIPARFSGSGSVTEFTLTISSLQSEDFAVYYCQQYNNWPPMYTFGQGTKLEIK
B8: BD56-490 (protein)
chain 1: QITLKESGPTLVKPTQTLTLTCTFSGFSLSTSGVSVGWIRQPPGQALEWLALIYWDDDERYSPSLRTRLTITKDTSRNQVVLTMTNMDPVDTGTYYCARMTDTSTLFDYWGQGTLVTVSS
chain 2: QSALTQPASVSGSPGQSITISCTGASSDVGAYNYVSWYQQHPGNAPKVIIYDVTKRPSGVSNRFSGSKSGNTASLTISGLQAQDEADYYCSSYTSSSVVFGGGTKLTVL
B9: BD56-509 (protein)
chain 1: QITLKESGPTLVKPTQTLTLTCTFSGFSLSTGGVAVGWVRQPPGKALEWLALLYWDDDKRYSPSLENRLTITKGSSKNQVVLTMTNMDPLDTAKYYCAHMTDTSTLFDYWGQGTLVTVSS
chain 2: B8 chain 2 with I18V, A31D, N44K, I49L, A82T, Q83E, S91C, S95T, S96T
B10: BD56-504 (protein)
chain 1: EVQLVESGGDLVQPGKSLTLSCTASGFTFEDYAMHWVRRVPGKGLEWVSGVSWNSGIIDYADSVKGRFTISRDNAKTSLYLHMRRLRPEDTALYYCAKGRGSAYDYGSGTYEGGYFDYWGQGTLVTVSS
chain 2: QSALTQPASVSGSPGQSITISCTGTSSVVGDYNYVSWYQQHPGKAPRLIIYDVRNRPSGVSNRFSGSKSDNTASLTISGLQADDEADYYCSSYSTSTTPWVFGGGTKLTVL
B11: BD56-506 (protein)
chain 1: EVQLVESGGGLIQPGGSLRLSCAASGFTVSSRYMNWVRQGPGKGLEWVSVIYTGGTTFYADSVKGRFTISRDNSKNSLYLQMNSLRHDDTALYYCARGQQEGWLQSGGFDIWGQGTMVTVSS
chain 2: QSALTQPPSASGSPGQSVTISCTGTSSDVGGSNYVSWYQQYPGKAPKLIISEVSKRPSGVPDRFSGSKSGNTASLTVSGLQAEDEADYYCSAYAGSHNFVFGTGTKVTVL
B12: BD56-505 (protein)
chain 1: QVQLVESGGGVVQPGRSLRVSCAASGFNFNTYGMHWVRQAPGKGLEWVALIWYDGSNKDYADSVKGRFTISRDNSKSTVYLQMNSLTAQDTAVYYCAKDRAAVDDAFEMWGQGTMVTVSS
chain 2: DIQMTQSPSSLSASVGDRVTLTCRASQSISSYLNWYQQKPGKAPKLLIYGASSLQSGVPSRFSGSGSGTDFTLTISSVQPEDFATYFCQQSYSNPYTFGLGTKLEIK
B13: BD56-511 (protein)
chain 1: QVQLQESGPGLVKPSETLSLTCTVSGASISSNSYYWGWIRQPPGKGLEWIGSIYFRGDTYYKPSLQSRVTISVDTSKNQFSLNLNSVTAADTAVYYCAEGFCLSPNCYGPDYYFDKWGQGTLVTVSS
chain 2: SYELTQPPSMSVSPGQTARITCSGNAFPNQYAYWYQQKPGQAPVVVIYKDIERPSGIPERFSGSSSGTTVTLTINGVQAEDEADYYCQSADASGVEFGGGTKLTVL

What was measured:
Assay in all cases: pseudovirus neutralization IC50; higher = weaker neutralization
[1] = biological target: SARS-CoV-2 Omicron BA.1 spike pseudovirus
Method: (§1)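 Single-round VSV luciferase pseudovirus mixed with antibody dilutions for 1 h and put on Huh-7 cells for about a day; IC50 from the dose curve.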

[2] = biological target: SARS-CoV-2 Omicron BA.2 spike pseudovirus
Method: as §1

[3] = biological target: SARS-CoV-2 Omicron BA.2.75 spike pseudovirus
Method: as §1

[4] = biological target: SARS-CoV-2 Omicron BA.5 spike pseudovirus
Method: as §1

[5] = biological target: SARS-CoV-2 Omicron BQ.1.1 spike pseudovirus
Method: as §1

[6] = biological target: SARS-CoV-2 Omicron XBB spike pseudovirus
Method: as §1

[7] = biological target: SARS-CoV-2 early D614G spike pseudovirus
Method: as §1

| Binder | pseudovirus neutralization IC50 [1] [µg/mL] | pseudovirus neutralization IC50 [2] [µg/mL] | pseudovirus neutralization IC50 [3] [µg/mL] | pseudovirus neutralization IC50 [4] [µg/mL] | pseudovirus neutralization IC50 [5] [µg/mL] | pseudovirus neutralization IC50 [6] [µg/mL] | pseudovirus neutralization IC50 [7] [µg/mL] |
| --- | --- | --- | --- | --- | --- | --- | --- |
| B1 | 0.00957 | 0.106 | > 10 | > 10 | > 10 | > 10 | 0.00483 |
| B2 | 0.176 | 0.204 | 0.317 | > 10 | > 10 | > 10 | 0.0262 |
| B3 | 0.00123 | 0.000515 | 0.00259 | 0.228 | > 10 | > 10 | 0.00137 |
| B4 | > 10 | > 10 | > 10 | > 10 | > 10 | > 10 | 0.213 |
| B5 | 3.55 | 2.78 | 4.59 | 2.85 | 2.77 | 3.21 | 3.61 |
| B6 | 4.06 | 0.12 | 4.3 | > 10 | > 10 | > 10 | 0.171 |
| B7 | > 10 | > 10 | > 10 | > 10 | > 10 | > 10 | > 10 |
| B8 | 0.00975 | 0.0013 | 0.00891 | 0.00197 | > 10 | > 10 | 0.00185 |
| B9 | 0.001 | 0.000969 | 0.000752 | 0.000878 | > 10 | > 10 | 0.001 |
| B10 | 0.161 | 0.197 | 0.199 | > 10 | > 10 | > 10 | 0.138 |
| B11 | 0.001 | 0.000482 | 0.00136 | 0.669 | > 10 | > 10 | 0.00115 |
| B12 | 0.018 | 0.000935 | 0.00341 | 0.00355 | > 10 | > 10 | 0.017 |
| B13 | 1.46 | 1.76 | 3.57 | 3.5 | 4 | 3.26 | 1.55 |

— the supplement of paper PMC9931576
